The labels stand for the following.
B1: YPL246C (protein, UniProt Q12270 1-262, looked up)
Rhomboid-type serine protease …: MNWKSYVFPGGHPPAALTTGLVVFLTAIYLLSFIFALREDLSLAPESLFKLQMSRLSLYPLIHLSLPHLLFNVLAIWAPLNLFEETHGTVYTGVFLNLSALFAGILYCLLGKLLYPEALVAGASGWCFTLFAYYSFKESQIRPRTRIFRTDYSIPTLYTPLVLLVAIAVVIPGSSFWGHFFGLCVGYAIGYKESWFNKITPPGWIITKIEKSLDGLIRLIPWGIKYYRDEDIDRTKDYEPLMSTETPLPLHNDNSGTVLGTA
B2: YOR229W (protein, UniProt Q12206 1-467, looked up)
Transcriptional modulator WTM2: MAKSKSSQGASGARRKPAPSLYQHISSFKPQFSTRVDDVLHFSKTLTWRSEIIPDKSKGTLTTSLLYSQGSDIYEIDTTLPLKTFYDDDDDDDNDDDDEEGNGKTKSAATPNPEYGDAFQDVEGKPLRPKWIYQGETVAKMQYLESSDDSTAIAMSKNGSLAWFRDEIKVPVHIVQEMMGPATRYSSIHSLTRPGSLAVSDFDVSTNMDTVVKSQSNGYEEDSILKIIDNSDRPGDILRTVHVPGTNVAHSVRFFNNHLFASCSDDNILRFWDTRTADKPLWTLSEPKNGRLTSFDSSQVTENLFVTGFSTGVIKLWDARAVQLATTDLTHRQNGEEPIQNEIAKLFHSGGDSVVDILFSQTSATEFVTVGGTGNVYHWDMEYSFSRNDDDNEDEVRVAAPEELQGQCLKFFHTGGTRRSSNQFGKRNTVALHPVINDFVGTVDSDSLVTAYKPFLASDFIGRGYDD
B3: YDL065C (protein, UniProt Q07418 1-339, looked up)
Peroxisomal membrane protein …: MNENEYDNFDDLDDLLDEDPTKLDEAEPDDVQAKGSVYNDSENKEKNAESKDSDGVQVANESEEDPELKEMMVDLQNEFANLMKNNGNENNVKTEDFNKLISALEEAAKVPHQQMEQGCSSLKSNSTDKGTVNGSNPGFKNIVSNTLDRLKENGNKVDTSLAEETKESQRSGQNNNIDDILSQLLDQMVASGGKESAENQFDLKDGEMDDAITKILDQMTSKEVLYEPMKEMRSEFGVWFQENGENEEHKEKIGTYKRQFNIVDEIVNIYELKDYDELKHKDRVTELLDELEQLGDSPIRSANSPLKHGNEEEELMKMLEIDGNDPNLGNLDKELTDGC
B4: YCR009C (protein, UniProt P25343 1-265, looked up)
Reduced viability upon …: MSWEGFKKAINRAGHSVIIKNVDKTIDKEYDMEERRYKVLQRAGEALQKEAKGFLDSLRAVTASQTTIAEVISNLYDDSKYVAGGGYNVGNYYLQCVQDFDSETVKQLDGPLRETVLDPITKFSTYFKEIEEAIKKRDHKKQDFDAAKAKVRRLVDKPAKDASKLPRAEKELSLAKDIFENLNNQLKTELPQLVSLRVPYFDPSFEALIKIQLRFCTDGYTRLAQIQQYLDQQSRDDYANGLLDTKIEELLGQMTSLDICALGIK
B5: YLR191W (protein)
chain: EFARALYDFVPENPEMEVALKKGDLMAILSKKDPLGRDSDWWKVRTKNGNIGYIPYNYIEIIK
B6: YOL147C (protein, UniProt Q12462 2-236, looked up)
Peroxisomal membrane protein …: VCDTLVYHPSVTRFVKFLDGSAGREKVLRLLQYLARFLAVQNSSLLARQLQAQFTTVRKFLRFLKPLNHLQAAAKFYDNKLASDNVVRVCNVLKNIFFAAYLSLDQVNLLRILKVIPVTVLTGKKIPRWSNWCWLFGLLSGLAMDLRKIQTSHAQIAAFVKAKSQSQGDEHEDHKKVLGKAYQDRYTALRRLFWDAADSFIVLNNLGYLSSNEEYVALSGVVTSILGMQDMWKAT
B7: YDR329C (protein, UniProt P28795 1-441, looked up)
Peroxisomal biogenesis factor …: MAPNQRSRSLLQRHRGKVLISLTGIAALFTTGSVVVFFVKRWLYKQQLRITEQHFIKEQIKRRFEQTQEDSLYTIYELLPVWRMVLNENDLNLDSIVTQLKDQKNQLTRAKSSESRESSPLKSKAELWNELELKSLIKLVTVTYTVSSLILLTRLQLNILTRNEYLDSAIKLTMQQENCNKLQNRFYNWVTSWWSDPEDKADDAMVMAAKKSKKEGQEVYINEQAFLSLSWWILNKGWLSYNEIITNQIEIEFDGIHPRDTLTLEEFSSRLTNIFRNTNSQIFQQNNNNLTSILLPKDSSGQEFLLSQTLDADALTSFHSNTLVFNQLVNELTQCIESTATSIVLESLINESFHFIMNKVGIKTIAKKKPGQEDQQQYQMAVFAMSMKDCCQEMLQTTAGSSHSGSVNEYLATLDSVQPLDDLSASVYSNFGVSSSFSFKP
B8: YGL153W (protein, UniProt P53112 2-341, looked up)
Peroxisomal membrane protein …: SDVVSKDRKALFDSAVSFLKDESIKDAPLLKKIEFLKSKGLTEKEIEIAMKEPKKDGIVGDEVSKKIGSTENRASQDMYLYEAMPPTLPHRDWKDYFVMATATAGLLYGAYEVTRRYVIPNILPEAKSKLEGDKKEIDDQFSKIDTVLNAIEAEQAEFRKKESETLKELSDTIAELKQALVQTTRSREKIEDEFRIVKLEVVNMQNTIDKFVSDNDGMQELNNIQKEMESLKSLMNNRMESGNAQDNRLFSISPNGIPGIDTIPSASEILAKMGMQEESDKEKENGSDANKDDNAVPAWKKAREQTIDSNASIPEWQKNTAANEISVPDWQNGQVEDSIP
B9: YAL041W (protein, UniProt P11433 1-854, looked up)
Cell division control protein …: MAIQTRFASGTSLSDLKPKPSATSISIPMQNVMNKPVTEQDSLFHICANIRKRLEVLPQLKPFLQLAYQSSEVLSERQSLLLSQKQHQELLKSNGANRDSSDLAPTLRSSSISTATSLMSMEGISYTNSNPSATPNMEDTLLTFSMGILPITMDCDPVTQLSQLFQQGAPLCILFNSVKPQFKLPVIASDDLKVCKKSIYDFILGCKKHFAFNDEELFTISDVFANSTSQLVKVLEVVETLMNSSPTIFPSKSKTQQIMNAENQHRHQPQQSSKKHNEYVKIIKEFVATERKYVHDLEILDKYRQQLLDSNLITSEELYMLFPNLGDAIDFQRRFLISLEINALVEPSKQRIGALFMHSKHFFKLYEPWSIGQNAAIEFLSSTLHKMRVDESQRFIINNKLELQSFLYKPVQRLCRYPLLVKELLAESSDDNNTKELEAALDISKNIARSINENQRRTENHQVVKKLYGRVVNWKGYRISKFGELLYFDKVFISTTNSSSEPEREFEVYLFEKIIILFSEVVTKKSASSLILKKKSSTSASISASNITDNNGSPHHSYHKRHSNSSSSNNIHLSSSSAAAIIHSSTNSSDNNSNNSSSSSLFKLSANEPKLDLRGRIMIMNLNQIIPQNNRSLNITWESIKEQGNFLLKFKNEETRDNWSSCLQQLIHDLKNEQFKARHHSSTSTTSSTAKSSSMMSPTTTMNTPNHHNSRQTHDSMASFSSSHMKRVSDVLPKRRTTSSSFESEIKSISENFKNSIPESSILFRISYNNNSNNTSSSEIFTLLVEKVWNFDDLIMAINSKISNTHNNNISPITKIKYQDEDGDFVVLGSDEDWNVAKEMLAENNEKFLNIRLY

The amount applied is not stated for every result.

In one series the test system is ABP1. The series is described as follows: DHFR-PCA on solid medium, bait ABP1 (Fig. 1B). The format is cell-based, Saccharomyces cerevisiae. Particulars: bait ABP1, label = prey. Details: key: 0: SH3-independent; 1: SH3-dependent PPIs; 2: SH3-inhibited PPIs. An excerpt: (§1) Supplement 41467_2021_21873_MOESM8_ESM.xlsx, sheet "Fig1B" | column: medsize; medrep; Ratio; Score
Turning to B1, the Score amounted to 2.

B2 displayed a Score of 2.

In the case of B3, the Score is recorded as 2. B4 registered a Score of 0.

A further series has as its system BEM1-1. The series is described as follows: DHFR-PCA on solid medium, bait BEM1-1 (Fig. 1B). The format is cell-based, Saccharomyces cerevisiae. Also on record: key: 0: SH3-independent; 1: SH3-dependent PPIs; 2: SH3-inhibited PPIs. The following applies: bait BEM1-1, label = prey.
From the text: as §1
In the case of B5, the Score came to 2. B6 displayed a Score of 2. On the same count and under the same terms, as for B7, the figure is 2; as for B8, 2; as for B3, 2. Still for that read-out and setting: next, B9: 0.

A further series has as its system BEM1-2. Description: DHFR-PCA on solid medium, bait BEM1-2 (Fig. 1B). Particulars: bait BEM1-2, label = prey. The format is cell-based, Saccharomyces cerevisiae. Details: key: 0: SH3-independent; 1: SH3-dependent PPIs; 2: SH3-inhibited PPIs.
From the text: as §1
As for B9, the Score was found to be 0.
